The numbers were not newly measured in article PMC6153800, “Structure-Based Drug Design and Characterization of Sulfonyl-Piperazine Benzothiazinone Inhibitors of DprE1 from Mycobacterium tuberculosis” (Antimicrobial Agents and Chemotherapy, 2018), which cites them from elsewhere.

Chains of the proteins cited; added tags and fusions are not shown.
UniProt P9WJF1, whole entry: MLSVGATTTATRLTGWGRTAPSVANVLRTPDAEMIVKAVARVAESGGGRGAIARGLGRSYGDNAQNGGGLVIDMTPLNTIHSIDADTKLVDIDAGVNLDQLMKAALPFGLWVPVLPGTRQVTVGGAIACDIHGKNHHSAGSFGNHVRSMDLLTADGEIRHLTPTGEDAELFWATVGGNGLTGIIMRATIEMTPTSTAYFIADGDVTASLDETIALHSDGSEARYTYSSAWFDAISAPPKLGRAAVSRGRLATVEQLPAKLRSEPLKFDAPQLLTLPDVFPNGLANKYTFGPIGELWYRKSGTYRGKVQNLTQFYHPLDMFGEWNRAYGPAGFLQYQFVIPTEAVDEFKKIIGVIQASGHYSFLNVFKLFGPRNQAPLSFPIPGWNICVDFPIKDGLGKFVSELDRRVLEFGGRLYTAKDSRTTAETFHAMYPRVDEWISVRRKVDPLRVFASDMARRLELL

The target of the data set is wild-type M. tuberculosis DprE1 (Mycobacterium tuberculosis, UniProt P9WJF1). The following applies: read-out: IC50 WT DprE1; wild-type enzyme; ref (1) Foo et al. 2016; cited from earlier work.

pIC50: −log10 of the molar value.

For the compound `COc1ccc(CNc2nc3cc(C(F)(F)F)ccc3nc2C(=O)O)cc1`, the negative logarithm of the IC50 (pIC50) (commonly the negative decadic logarithm of the IC50, by convention in mol/L) was 6.70.
